{"source": "patent EP4349860A1", "about": "“Anti-sars-cov-2 antibodies” (dated 2024)", "key": {"[1]": {"target": "SARS-CoV-2 spike protein, WH1 variant, on pseudovirus (SARS-CoV-2.SctΔ19)", "assay": "cell-based or functional assay"}, "[2]": {"target": "SARS-CoV-2 spike protein, D614G variant, on pseudovirus", "assay": "cell-based or functional assay"}}}
{"substance": "S2E12", "values": [{"measurement": "IC50 (µg/ml), pseudotyped virus neutralization", "setting": "[1]", "value": 0.0005, "unit": "µg/mL"}]}
{"substance": "S309", "values": [{"measurement": "IC50 (µg/ml), pseudotyped virus neutralization", "setting": "[1]", "value": 0.274, "unit": "µg/mL"}, {"measurement": "IC50 (µg/ml), pseudotyped virus neutralization", "setting": "[2]", "value": 0.0802, "unit": "µg/mL"}]}
